Data taken from PMC9767369, “Properties of rabies virus phosphoprotein and nucleoprotein biocondensates formed in vitro and in cellulo” (2022).

Experiments:
Experiment in all cases: SEC-MALS; purified P constructs from E. coli; conditions not given
[1] = test system: PΔCTD (RABV P, PV strain, amino acids 195-296 deleted, StrepTagII), rabies virus (PV strain), P06747 1-297
[2] = test system: PΔNTD (RABV P, PV strain, C261S, amino acids 1-52 deleted, StrepTagII), rabies virus (PV strain), P06747 53-297
[3] = test system: recombinant RABV P (PV strain), C261S, with C-terminal StrepTagII, rabies virus (PV strain), P06747 1-297

**Q.** How did the stoichiometry N [1] turn out when “PΔCTD (RABV P, PV strain, amino acids 195-296 deleted, StrepTagII) Δ195-296” was run?
**A.** The stoichiometry N was 2.

**Q.** Which stoichiometry N [2] does the source give for “PΔNTD (RABV P, PV strain, C261S, amino acids 1-52 deleted, StrepTagII)” here?
**A.** Its stoichiometry N is 2.

**Q.** How did the stoichiometry N [3] turn out when “recombinant RABV P (PV strain), C261S, with C-terminal StrepTagII” was run?
**A.** Its stoichiometry N is 2.
